In this data set the target is Fis-GST (Dickeya zeae EC1) (UniProt D2C1X4). The data set is described as follows: EMSA. The following applies: 100 and 200 nM Fis-GST; recombinant protein; residues 1-98; protein details: N-terminal GST (pGEX-6p-1); label: 3' biotin; probe letters rebuilt from the primers and the genome.

The exact form of at least one protein or probe is not confirmed.

Experimental findings from PMC5762655 are described below.

Take “ATTCAGTGCTGCTGTGGTTTCAGCTATATTCATCATCGTGAAATATTTACCATTCAATATACTTAACGAATTCTCAGTAGTGGTGTTAGATATCTTTGTTGCCATGATTTCTGCCATTGTTGGTGTAATTATGGGCGTGCTCCGGGGAAGGACGATTGTATTATCAAAGAAGTGAAATAGGATTATGAATTTTCCTACGCCTATCCTGGTTATAATACCAAGGAGTAAGTTTAACAGTTATTAACAATAAAGCGGGTCATAGTGAGGTACATGGCTTCATGTTACCCAGGGATGGCTTTGCCTTTTGTGAGAGGGAATATATGTTAGGGAAGGATATATTGCACCTGAATAGCGGGGCAAGTGACATTGCAATTGTCGGA (double strand) [zmsA promoter]”: the binding result is “binds”.

Consider “GAATGAATCTCCATTTCAGATGGTTATATTTTAGGTTGAGTGATAAATAGAATGCGCAATATTGACATCCTATCAATTGAAGTCTTTATCCATATCGGTGTATGAAATATGATGAAAGACACTATAATGTTATAGTTGGTTTCTCCAGTAGTTCCAGTTTTCTTGGCTGTGTGAATATTTTAATCTAAAATTATTTCTGCGATAGAATCTAAAGGCGTCGATGTCAGGAAGGCTTATCAAGGTGTTTTTTTTCGGTGTTTATTCATATCAGGAAATTAAAATAACTCACGGGTGATATAATACGATAAATTAAAATAAACGAGAATTTTTTTCTGAAAAAAACAGAAGTTCTGGTGATAGTCACCTGTAGAGATTAGCGTGA (double strand) [celZ promoter]”, for which the binding result is on record as “binds”.

Turning to “TTTCCATCCCGCTTTATCCCGGCAGGCAGGCGAACCACGGATATCTATCCATTGCTACCAGAGCCACCCTCTCGCCGTTGCCACACCCACACACACCCGCTACACCATGGGCTCGCGTTGCCTATAGACCAATTGCGAGACGAAAAATCCCATGTTCGACACGTCATCGTCCCATTAATGGGATCACTTATAGGCAGGCGTAAGCATTTCCCTTTAAAAACAAGCAATAACAACATGGCACACAATTTGCCTTAGACAGATCGTACGTCTGACCAAGGGACAATAATCAACCACTGAATTCGCCGCTGTAAGGATTTTTGGATTTAGCTGGACCAGACACGGGGAATCTATTTTTTTGGGATGACACCATGA (double strand) [vfmE promoter]”, the binding result is reported as “binds”.

On to “GTATGACGGATGCCACCTGTGCCTGAACGGCAGCGACGTACTGATCCTCTGGTGGCCGTTGCCACCGGCGTCTGACTCCTATGCACAACGGGTTGAACAGCTGTTTGCCTTGGCTGAGCTGACATTACCGCCGGTTGCGGCAACGCGGGCGCAAAAAGAGCGCAACGTGCCGCGATTTGTGCGGTAACTGCCGCTTTTTTAGGTCAGACCGGTGAATAGGGGGAACCGTTTCACTGCCCGTGTCACTCAGTAACCAGTATCCATCATGATGCCCACATCGGGAGCGGCGTAGGCATCCGTTGCAGGTACTGTTGCGAATATCTGACATGAATGAGGAAACGAGATTATG (double strand) [hrpN promoter]”, for which the binding result is on record as “binds”.

As to “GCAGGATGCTTTTAAGACGGAACAACCACAGGCACAGTCAGATACATTATCTATTCGTCATTGCCGTGAGTCAGACTATTTTATGGATGCCGATATTTCCACCCGCTGGGAGAGCGACACTATCAATATCTACATTACTCGAGATGCTGAACAGCAATTAAAGCTCCATATTACCTGTTGCTGTTTCAATCAAGAGGGCATGGAACAGTTTTTACAGTTGATCCGTCAACAACTCTCTTCCCTGAATTAATTGAGCTGGATATTCA (double strand) [zmsK promoter]”, the binding result is “binds”.

Regarding “GAGTGAGGAATGGCTAAAAATGTATTATCTCTGTTATTTTATGATGTAATGTCATTTTTTAGGGGGATAAATTTCTTTGGTGGTTGAGTATCATCATGGGTTTCTTTATCTTCATATCGCCTAAAGAGAGTATACTCACCTCACCCCAATATGCAGGATGCTATGTATTCAACACAACCTTTGCTCATGGATAGTCGAAGGAATATCATTTTCTTTCAACATGATATTTACCGAGCCAGGTTGCTTAACTTTGACGGGGCTGATTCATTCAGTCATCAATACCGCTATTGATGTCGGATAGATAGCGCAATAACGATTTATTTTCCTGATAGCATGGTTTGGTGTAGGCATCTTGGGGCTAATGGATAAATGATTTTTACAACATAAATG (double strand) [pelL promoter]”, the binding result is “binds”.

For the sequence “CATTATCTTTCCTTAGCCAGCCCATAAACAGTCTGCCCGCGCAGGTAGAATTCCCGACTGATCTGACTGAAGTTCTCTGAGTGTCCGGCAAACAATAATCCGCCTGGTTTAAGTAGCGGAACAAAACGACGCAAAATGCGTTCCTGAGTCTCTTTATCGAAATAAATCATCACATTACGACAAAAGATCGCATCAAACGGCGCAGGTACAGACCATTCTGGTGCCAATAGATTCACTTGCTGAAAATGAATCATGTTCGCCAGATCCGGACGAACCCGAACCAGACCACTGTGCGGCCCGGTTCCACGCAAAAAGAAGCGCTGCATCTGCTGTGGAGAAAGTGACCGGAGATCTTCCTGCCGATAAATACCCG (double strand) [cheB promoter]”, the binding result is listed as “binds”.

“GGGAAACCGGCCGATGAAACGGCCAGTCTGGTCGCCGCTGAGCATGGTATATCGCTAGATGGACATGTTGCGCGTCAGTTGACCTCGCCGTTGTGTCGGCATTACGACCTGATTCTGGTGATGGAAAAGGCTCAAATTGATGCCGTGTGCCGTTTCGCCCCGGAAGTCCGGGGGAAAACGTTGTTGTTCGGGCACTGGTTTAACCAGCAGGAGATCACCGACCCGTACCGTAAGAGCCGGGAAGCCTTTGAGTTTGTGTATACCCAACTTGAACAATCTGCCCGTAAATGGGCACAGGCGCTGAGCCGTTAACCAGTCAGGGATTACGATGTCAGAGAGAATTGCC (double strand) [amsA promoter]”: the binding result is “binds”.

Regarding “CTGGCATAACAGGAAACAGGATGCCTGTCAGCCAGCAACACGACTGTAGACAGGTGTCTCGTACGCACGGCGTGATGGTAAGAAACGCATAAAAATGCGCCAGGCATGCATGCCATCATGTGACCGTGTGGCCTTTCCGGCAAACCAGTTTGAATACATATCGTTACCTGTATGGGTGATGTCTGGTCCGCAGGTAGTAAAACGACAACCAACGCAGAAGCGCTGTTTTTCAGACGTCGCATCCATTTTAAATGGGTGCCATGCCGTTAAACATGGCGCTGTATGGCCCTTATTCCACGTTTGCGAACGTGGCAAGGATAATCGGCGAACGCATAGGGATAATGTTTGCAGATG (double strand) [outC promoter]”, the binding result is “binds”.
